Compound potency records, mixed from different reports. Data source: NIAID ChemDB in PubChem.

All rows: growth or infection tests; agent: Mycobacterium avium; endpoint: MIC

Rows are shuffled and stem from different studies.

{"compound": "Fc1ccc(/C(Cn2ccnc2)=N\\OC/C=C/c2ccccc2)cc1", "strain": "103317", "result": "23.8 µM"}
{"compound": "CCCCOc1cccc(NC(=O)OCCC[NH+]2CCCCC2)c1", "strain": "MY330/88", "result": "62.5 µM"}
{"compound": "COc1ccc(-n2c(C)nc3ccc(Cl)cc3c2=S)cc1", "strain": "MY330/88", "result": "62.5 µg/mL"}
{"compound": "O=C(Nc1ccc(Br)cc1)c1ncccc1O", "strain": "CNCTC MY330/88", "result": "62.5 µM"}
{"compound": "CN1C(NNC(=O)c2cnccn2)=NS(=O)(=O)c2ccccc21", "strain": "ATCC49601", "result": "2 µg/mL"}
{"compound": "CCC(C)c1ccc(NC(=O)c2cc(Cl)ccc2N)cc1", "strain": "MY330/88", "result": "31 µM"}
{"compound": "CCCSc1ncnc2ccccc12", "strain": "CNCTC MY80/72", "result": "250 µM"}
{"compound": "N#Cc1ccnc(SCC(O)CO)c1", "strain": "330/88", "result": "1000 µM"}
{"compound": "CCCCC(C(=O)O)c1ccccc1", "result": ">100 µM"}
{"compound": "CCCCCOc1ccc(NC(=O)OCC[NH+]2CCCC2)cc1", "strain": "MY330/88", "result": "62.5 µM"}
{"compound": "CN1C(NNC(=O)c2cccnc2)=NS(=O)(=O)c2ccccc21", "strain": "ATCC49601", "result": ">16 µg/mL"}
{"compound": "CC[C@H]1OC(=O)[C@H](C)C(=O)[C@H](C)[C@@H](O[C@@H]2O[C@H](C)C[C@H](N(C)C)[C@H]2O)[C@](C)(OC)C[C@@H](C)C(=O)[C@H](C)[C@H]2N(CCCCn3cnc(-c4cccnc4)c3)C(=O)O[C@]12C", "strain": "Isolate 1110", "result": "20 µg/mL"}
{"compound": "Cc1ccc2nc(SCc3ccccc3Cl)[nH]c2c1", "strain": "MY330/88", "result": "32 µM"}
{"compound": "Cc1c(C)c(C)[c-](C)c1C.N[C@@H](Cc1ccccc1)C(=O)[O-].[Cl][Ir+2]", "strain": "A5", "result": ">250 µg/mL"}
{"compound": "CC(C)=CCCC(C)CCCC(C)CC(=O)O", "result": "31.25 µM"}
{"compound": "FC(F)(F)c1nc2c(Br)c(Br)c(Br)c(Br)c2[nH]1", "strain": "MY330/88", "result": "125 µM"}
{"compound": "CC1(C)Nc2ccccc2C(=S)N1c1ccc(Cl)c(Cl)c1", "strain": "MY330/88", "result": ">62.5 µg/mL"}
{"compound": "Cc1c(CN2CCN(C)CC2)cc(-c2ccc(Cl)cc2)n1-c1ccc(Cl)cc1", "strain": "103317", "result": "0.4 µg/mL"}
{"compound": "Cc1ccc2nc(SCc3ccc(Cl)c(Cl)c3)[nH]c2c1", "strain": "MY330/88", "result": ">32 µM"}
{"compound": "COc1ccccc1NC(=O)OCCC[NH+]1CCCCC1", "strain": "MY330/88", "result": "1000 µM"}
{"compound": "N#CCCCSc1ccnc(C(=N)N)c1", "strain": "330/88", "result": ">1000 µM"}
{"compound": "CC1(C)Nc2ccc(Cl)cc2C(=S)N1c1cccc(Cl)c1", "strain": "MY330/88", "result": ">250 µg/mL"}
{"compound": "O=C(NCc1ccccc1)c1ncccc1O", "strain": "CNCTC MY330/88", "result": "500 µM"}
{"compound": "O=c1oc2ccc(Cl)cc2c(=S)n1-c1ccc(Cl)c(Cl)c1", "strain": "MY330/88", "result": "16 µM"}
{"compound": "C(=C\\c1ccccc1)/COC(Cn1ccnc1)c1ccccc1", "strain": "103317", "result": "13.2 µM"}
{"compound": "N#CCSc1ccnc(C#N)c1", "strain": "330/88", "result": "1000 µM"}
{"compound": "N/C(=N\\N=C\\c1ccccc1)SCc1cccc(Cl)c1", "strain": "ATCC 25291", "read by": "broth dilution", "setting": "21 d", "result": "62.5 µM"}
{"compound": "Cc1ccc(C(=O)c2ccc(-c3ccc(Br)cc3)cc2)cc1", "result": "712 µM"}
{"compound": "N/C(=N\\N=C\\c1ccccc1Cl)c1ccncc1", "strain": "Isoniazid/rifampicin/ofloxacin-resistant", "result": "16 µg/mL"}
{"compound": "CC[C@@H](C)[C@H](NC(=O)OCc1ccccc1)c1cnc(-c2ccc([N+](=O)[O-])cc2)[nH]1", "strain": "MY330/88", "setting": "21 d", "result": ">125 µM"}
{"compound": "N/C(=N\\N=C\\c1cc(Br)ccc1O)SCc1ccc(F)cc1", "strain": "ATCC 25291", "read by": "broth dilution", "setting": "14 d", "result": "62.5 µM"}
{"compound": "O=C1C(=S)N(Cc2ccccc2)c2ccccc21", "strain": "CNCTC MY80/72", "result": "250 µM"}
{"compound": "Cc1ccc(-n2c(=S)oc3ccc(Cl)cc3c2=S)cc1", "strain": "MY330/88", "result": "16 µM"}
{"compound": "CC(C)Sc1ncnc2ccccc12", "strain": "CNCTC MY80/72", "result": "125 µM"}
{"compound": "CN1C(NNC(=O)c2cnccn2)=NS(=O)(=O)c2ccc(Cl)cc21", "strain": "ATCC49601", "result": ">16 µg/mL"}
{"compound": "CN1C(=S)C(=O)c2ccccc21", "strain": "CNCTC MY66/72", "result": "16 µM"}
{"compound": "O=C(Nc1ccc(Br)cc1)c1ncccc1S", "strain": "CNCTC MY330/88", "result": "32 µM"}
{"compound": "CCCCOc1cccc(NC(=O)OCCN(C)C)c1", "strain": "MY330/88", "result": "62.5 µM"}
{"compound": "Cc1ccc2nc(SCc3ccc(F)cc3)[nH]c2c1", "strain": "MY330/88", "result": "62 µM"}
{"compound": "CC(C)C[C@H](NC(=O)OCc1ccccc1)c1cnc(-c2ccccc2)[nH]1", "strain": "MY330/88", "setting": "14 d", "result": ">250 µM"}
{"compound": "O=c1oc2ccc(Cl)cc2c(=S)n1-c1ccc(Br)cc1", "strain": "MY330/88", "result": "31 µM"}
{"compound": "CN1C(NNC(=O)c2ccncc2)=NS(=O)(=O)c2ccccc21", "strain": "ATCC49601", "result": ">16 µg/mL"}
{"compound": "O=C(Nc1ccc(Cl)cc1)c1ncccc1S", "strain": "CNCTC MY330/88", "result": "32 µM"}
{"compound": "Nc1ccc(Cl)cc1C(=O)Nc1ccc(Cl)c(Cl)c1", "strain": "MY330/88", "result": "31 µM"}
{"compound": "N#CCCSc1cc(C(N)=S)ccn1", "strain": "330/88", "result": "125 µM"}
{"compound": "CCCCCCCOc1ccc(NC(=O)OCCC[NH+]2CCCCC2)cc1", "strain": "MY330/88", "result": "32 µM"}
{"compound": "S=c1oc2ccc(Cl)cc2c(=S)n1-c1ccc(Cl)c(Cl)c1", "strain": "MY330/88", "result": "16 µM"}
{"compound": "Cc1ccc(/C=N/N=C(\\N)c2ccncc2)c(C)c1", "strain": "Isoniazid/rifampicin/ofloxacin-resistant", "result": "64 µg/mL"}
{"compound": "N#CCCSc1ccnc(C#N)c1", "strain": "330/88", "result": "500 µM"}
{"compound": "CS(=O)(=O)c1ccc(C(=O)c2ccc(-c3ccc(Br)cc3)cc2)cc1", "result": "78 µM"}
{"compound": "NC(=S)c1ccnc(SCC(O)CO)c1", "strain": "330/88", "result": "250 µM"}
{"compound": "Clc1ccc(C(Cn2ccnc2)OCc2cccc3ccccc23)cc1", "strain": "103317", "result": "11 µM"}
{"compound": "N/C(=N\\N=C\\c1ccccc1O)SCc1cccc(Cl)c1", "strain": "ATCC 25291", "read by": "broth dilution", "setting": "14 d", "result": "62.5 µM"}
{"compound": "O=C(NNC1=NS(=O)(=O)c2ccccc2N1c1ccccc1)c1cnccn1", "strain": "ATCC49601", "result": ">16 µg/mL"}
{"compound": "CCC(C/C(C)=C/CC[C@H](C)CCO)C(=O)O", "result": "62.5 µM"}
{"compound": "O=c1oc2ccc(Cl)cc2c(=O)n1-c1ccccc1", "strain": "MY330/88", "result": "31 µM"}
{"compound": "Clc1ccc(/C(Cn2ccnc2)=N/OC/C=C/c2ccccc2)cc1", "strain": "103317", "result": "22.7 µM"}
{"compound": "CC(C)CC(NC(=O)c1nc2c(C(C)(C)C)cc(C(C)(C)C)cc2o1)C(=O)O", "strain": "MY330/88", "result": "1000 µM"}
{"compound": "CCSc1ncnc2ccccc12", "strain": "D 5/93", "result": "500 µM"}
{"compound": "Nc1ccc(Cl)cc1C(=O)Nc1ccc(F)cc1", "strain": "MY330/88", "result": "125 µM"}
{"compound": "O=C(Nc1ccccc1)c1ncccc1O", "strain": "CNCTC MY330/88", "result": "250 µM"}
{"compound": "S=c1oc2ccc(Cl)cc2c(=S)n1-c1ccc(Cl)cc1", "strain": "MY330/88", "result": "16 µM"}
{"compound": "O=C(N[C@@H](Cc1ccccc1)c1cnc(-c2ccccc2)[nH]1)OCc1ccccc1", "strain": "MY330/88", "setting": "21 d", "result": ">500 µM"}
{"compound": "FC(F)(F)C(F)(F)C(F)(F)c1nc2c(Cl)cc(Cl)cc2[nH]1", "strain": "MY330/88", "result": "32 µM"}
{"compound": "O=c1oc2ccc(Cl)cc2c(=O)n1-c1ccc(Cl)cc1", "strain": "MY330/88", "result": "8 µM"}
{"compound": "COc1ccc(C(=O)c2ccc(-c3ccc(Br)cc3)cc2)cc1", "result": "681 µM"}
{"compound": "CCCCSc1ncnc2ccccc12", "strain": "CNCTC MY80/72", "result": "32 µM"}
{"compound": "S=c1oc2ccc(Cl)cc2c(=S)n1-c1ccc(Br)cc1", "strain": "MY330/88", "result": "16 µM"}
{"compound": "Fc1ccc(/C(Cn2ccnc2)=N/OCc2ccccc2)cc1", "strain": "103317", "result": "25.9 µM"}
{"compound": "CC(=O)N1N=C(c2ccncc2)OC1c1ccc(F)c(F)c1", "result": "<12.5 µg/mL"}
{"compound": "c1ccc(/C(Cn2ccnc2)=N\\OCc2ccc(-c3ccccc3)cc2)cc1", "strain": "103317", "result": "21.7 µM"}
{"compound": "CCCC(C)C(C/C(C)=C/CC[C@H](C)CCO)C(=O)O", "result": "31.25 µM"}
{"compound": "Cc1ccc2nc(SCc3ccccc3F)[nH]c2c1", "strain": "MY330/88", "result": "62 µM"}
{"compound": "O=[N+]([O-])c1cc(Sc2nc3c(Cl)cc(Cl)cc3[nH]2)cc([N+](=O)[O-])c1", "strain": "MY330/88", "result": "125 µM"}
{"compound": "O=C(Nc1cccc(F)c1)c1ncccc1S", "strain": "CNCTC MY330/88", "result": "62.5 µM"}
{"compound": "Cc1ccc2nc(SCc3cc([N+](=O)[O-])cc([N+](=O)[O-])c3)[nH]c2c1", "strain": "MY330/88", "result": "32 µM"}
{"compound": "O=[N+]([O-])c1ccc(Sc2nc3c(Cl)cc(Cl)cc3[nH]2)cc1", "strain": "MY330/88", "result": "4 µM"}
{"compound": "CCCOc1ccc(NC(=O)OCCC[NH+]2CCCCC2)cc1", "strain": "MY330/88", "result": "500 µM"}
{"compound": "Cc1ccc(-n2nnc3ccccc3c2=O)cc1", "strain": "MY330/88", "result": ">125 µM"}
{"compound": "N/C(=N\\N=C\\c1ccccc1)SCc1ccc(C(F)(F)F)cc1", "strain": "ATCC 25291", "read by": "broth dilution", "setting": "21 d", "result": "62.5 µM"}
{"compound": "Cc1ccc(/C=N/N=C(\\N)c2ccncc2)cc1", "strain": "Isoniazid/rifampicin/ofloxacin-resistant", "result": "32 µg/mL"}
{"compound": "CC(C)=CCC/C(C)=C\\CC(C(=O)O)c1ccccc1", "result": "250 µM"}
{"compound": "COc1ccc(CSc2nc3ccc(C)cc3[nH]2)cc1", "strain": "MY330/88", "result": "62 µM"}
{"compound": "O=C1C(=S)N(c2ccccc2)c2ccccc21", "strain": "CNCTC MY66/72", "result": "63 µM"}
{"compound": "Cc1c(CN2CCSCC2)cc(-c2ccc(F)cc2)n1-c1ccccc1", "strain": "103317", "result": "16 µg/mL"}
{"compound": "C/C=C/CCC(C)CC(=O)O", "result": ">1000 µM"}
{"compound": "CCCCOc1ccc(NC(=O)OCCN(C)C)cc1", "strain": "MY330/88", "result": "125 µM"}
{"compound": "O=c1oc2ccc(Cl)cc2c(=O)n1-c1cccc(Cl)c1", "strain": "MY330/88", "result": "8 µM"}
{"compound": "Cc1ccc(NC(=O)c2ncccc2O)cc1", "strain": "CNCTC MY330/88", "result": "125 µM"}
{"compound": "Nc1ccccc1C(=O)Nc1cccc(Cl)c1", "strain": "MY330/88", "result": ">125 µM"}
{"compound": "CCCCCCCCCCCCCCCCC(C(=O)NN)c1ccccc1", "result": "50 µM"}
{"compound": "CCn1c(S)c(N=NC(N)=O)c2ccccc21", "strain": "CNCTC MY80/72", "result": "500 µM"}
{"compound": "O=C(N[C@@H](Cc1ccccc1)c1cnc(-c2ccc([N+](=O)[O-])cc2)[nH]1)OCc1ccccc1", "strain": "MY330/88", "setting": "21 d", "result": ">62.5 µM"}
{"compound": "COc1cccc(NC(=O)OCCC[NH+]2CCCCC2)c1", "strain": "MY330/88", "result": "500 µM"}
{"compound": "N#Cc1cc(SCC(=O)NN)ccn1", "strain": "330/88", "result": "250 µM"}
{"compound": "CCOc1cccc(NC(=O)OCCN2CCOCC2)c1", "strain": "MY330/88", "result": ">1000 µM"}
{"compound": "CC[C@@H](C)[C@H](NC(=O)OCc1ccccc1)c1cnc(-c2ccccc2)[nH]1", "strain": "MY330/88", "setting": "14 d", "result": ">250 µM"}